Laboratory results published in patent US10273235B2, “Compositions and methods for inhibiting β-lactamase” (LegoChem Biosciences, Inc., priority 2015, dated 2019).
Where “and” joins values, the source holds several entries; their conditions need not be identical. Equal values may be shown once.

Assays:
Format in all cases: cell-based
K. pneumoniae 89 = assay: BLI potentiation MIC, K. pneumoniae 89; conditions: BLI fixed 4 ug/ml; incubation 19 h
K. pneumoniae 6839 = assay: BLI potentiation MIC, K. pneumoniae 6839 (SHV-11, SHV-12, DHA-1); conditions: BLI fixed 4 ug/ml; incubation 19 h
K. pneumoniae 101 = assay: BLI potentiation MIC, K. pneumoniae 101; conditions: BLI fixed 4 ug/ml; incubation 19 h
K. pneumoniae NDM-506 = assay: BLI potentiation MIC, K. pneumoniae NDM-506; conditions: BLI fixed 4 ug/ml, incubation 19 h
K. pneumoniae 5117 = assay: BLI potentiation MIC, K. pneumoniae 5117 (SHV-11, TEM-1); conditions: BLI fixed 4 ug/ml; incubation 19 h
K. pneumoniae 6540 = assay: BLI potentiation MIC, K. pneumoniae 6540; conditions: BLI fixed 4 ug/ml; incubation 19 h
K. pneumoniae 7586 = assay: BLI potentiation MIC, K. pneumoniae 7586; conditions: BLI fixed 4 ug/ml; incubation 19 h
K. pneumoniae 5576 = assay: BLI potentiation MIC, K. pneumoniae 5576 (SHV-11, CMY-2, DHA-1, TEM-1); conditions: BLI fixed 4 ug/ml; incubation 19 h
K. pneumoniae 4006 = assay: BLI potentiation MIC, K. pneumoniae 4006 (SHV-12, CTX-M-15, TEM-1, OXA-9); conditions: BLI fixed 4 ug/ml; incubation 19 h
K. pneumoniae MP14 = assay: BLI potentiation MIC, K. pneumoniae MP14; conditions: BLI fixed 4 ug/ml; incubation 19 h; K. pneumoniae ATCC700603
K. pneumoniae 23 = assay: BLI potentiation MIC, K. pneumoniae 23; conditions: BLI fixed 4 ug/ml; incubation 19 h

SMILES: NCCONC(=O)[C@@H]1CC[C@@H]2CN1C(=O)N2OS(=O)(=O)O [OP-595]
- MIC of LCB10-0200 with BLI (K. pneumoniae 89): <0.0312 μg/mL
- MIC of LCB10-0200 with BLI (K. pneumoniae 6839): <0.03125 μg/mL and <0.0312 μg/mL
- MIC of LCB10-0200 with BLI (K. pneumoniae 101): <0.03125 μg/mL and <0.0312 μg/mL
- MIC of Meropenem with BLI (K. pneumoniae 101): <0.0312 µg/mL
- MIC of LCB10-0200 with BLI (K. pneumoniae NDM-506; Meropenem, K. pneumoniae MP14): 0.125 μg/mL
- MIC of LCB10-0200 with BLI (K. pneumoniae NDM-506; P. aeruginosa ARC3506): >64 μg/mL
- MIC of LCB10-0200 with BLI (K. pneumoniae 5117): <0.0312 μg/mL
- MIC of LCB10-0200 with BLI (K. pneumoniae 6540): <0.03125 μg/mL and <0.0312 μg/mL
- MIC of LCB10-0200 with BLI (K. pneumoniae 7586): <0.0312 μg/mL
- MIC of LCB10-0200 with BLI (K. pneumoniae 5576): <0.03125 μg/mL and <0.0312 μg/mL
- MIC of Meropenem with BLI (K. pneumoniae 5576): <0.0312 µg/mL
- MIC of LCB10-0200 with BLI (K. pneumoniae 4006): <0.03125 μg/mL and <0.0312 μg/mL
- MIC of Meropenem with BLI (K. pneumoniae 4006): <0.0312 µg/mL
- MIC of Meropenem with BLI (K. pneumoniae MP14): 0.125 µg/mL
- MIC of LCB10-0200 with BLI (K. pneumoniae 23): <0.0312 μg/mL
